Measured values from several laboratories, pooled; numbers as filed in NIAID ChemDB.

All rows: tests in culture; species: Mycobacterium avium; measure: MIC

Neighbouring rows are from separate reports.

SMILES | strain or isolate | value
c1ccc(C(Cn2ccnc2)OCc2cccc3ccccc23)cc1 | 103317 | 3.05 µM
c1ccc(/C(Cn2ccnc2)=N/OCc2ccc(-c3ccccc3)cc2)cc1 | CIP103317 | 8 µg/mL
O=c1oc2ccccc2c(=O)n1Cc1ccc(F)cc1 | MY330/88 | 125 µM
N/C(=N/N=C/c1ccccc1)c1ccccn1 | - | 32 µg/mL
CCCCCCCCC(CC)OC(=O)c1cnc(Cl)cn1 | ATCC49601 | 256 µg/mL
O=c1oc2ccc(F)cc2c(=O)n1-c1ccc(F)cc1 | CNCTC MY330/88 | 31 µM
CCCCCCCCCOc1ccc(NC(=O)OCC[NH+]2CCCC2)cc1 | MY330/88 | 16 µM
Fc1ccc(/C(Cn2ccnc2)=N\OCc2ccc(-c3ccccc3)cc2)cc1 | CIP103317 | 16 µg/mL
O=c1oc2ccccc2c(=O)n1-c1cccc(F)c1 | CNCTC MY330/88 | 62 µM
Fc1ccc(/C(Cn2ccnc2)=N/OC/C=C/c2ccccc2)cc1 | 103317 | 23.8 µM
Cc1ccc(O)c(C(=S)NCc2ccc(Cl)cc2)c1 | MY330/88 | 0.5 µg/mL
CCCCCCCC[N+]1(CCOC(=O)Nc2ccccc2OCCCCCC)CCCCC1 | MY330/88 | 16 µM
COc1ccccc1/C=N/N=C(/N)c1ccccn1 | - | 128 µg/mL
O=C(Nc1ccc(Cl)c(Cl)c1)c1cc([N+](=O)[O-])ccc1O | CNCTC MY330/88 | 62 µM
S=C(Nc1ccc(C2CCCCC2)cc1)c1cccc(Cl)c1 | MY330/88 | 32 µM
Clc1ccc(/C(Cn2ccnc2)=N\OCc2ccc(-c3ccccc3)cc2)c(Cl)c1 | 103317 | 18.3 µM
Clc1ccc(/C(Cn2ccnc2)=N\OCc2cccc3ccccc23)cc1 | CIP103317 | >16 µg/mL
O=c1oc2c(Cl)cc(Cl)cc2c(=O)n1Cc1ccccc1 | MY330/88 | 250 µM
N#Cc1cc(SCc2ccccc2F)ccn1 | CNCTC MY330/88 | 126 µM
CCCCCC(CC)OC(=O)c1cnc(Cl)cn1 | ATCC49601 | 32 µg/mL
CS/C(N)=N/NC(=O)c1ccc(Cl)cc1Cl | ATCC 19421 | >100 µg/mL
c1ccc(/C(Cn2ccnc2)=N\OCc2ccc(-c3ccccc3)cc2)cc1 | CIP103317 | 16 µg/mL
O=C(Nc1cccc(Cl)c1)c1cc(Br)ccc1O | CNCTC MY330/88 | 31 µM
COC(=O)c1cnccn1 | ATCC49601 | >256 µg/mL
O=C(Nc1ccc(Cl)cc1)c1ccccc1O | CNCTC MY330/88 | 31 µM
NC(=S)c1cc(SCc2ccc(Br)cc2)ccn1 | CNCTC MY330/88 | 7.94 µM
Clc1ccc(CNc2ccccc2N2CCOCC2)cc1 | 103317 | 25 µM
Cc1ccc(C(=O)N/N=C(\N)SCc2cccc(Cl)c2)cc1 | ATCC 19421 | >100 µg/mL
CC(C)CCSc1ccc(NC(=S)Nc2ccc(SCCC(C)C)cc2)cc1 | 724 | 2.5 µg/mL
CC[C@H]1OC(=O)[C@H](C)C(=O)[C@H](C)[C@@H](O[C@@H]2O[C@H](C)C[C@H](N(C)C)[C@H]2O)[C@](C)(OC)C[C@@H](C)C(=O)[C@H](C)[C@H]2N(NCCCc3ccnc4ccccc34)C(=O)O[C@]12C | Isolate 1295 | 10 µg/mL
NC(=S)NNC(=O)c1ccc([N+](=O)[O-])cc1 | ATCC 19421 | >100 µg/mL
O=C(c1ccccc1)c1ccc(-c2ccc(Br)cc2)cc1 | - | 742 µM
CC(C)CCOc1ccc(NC(=S)Nc2ccc(OCCC(C)C)cc2)cc1 | 724 | 2 µg/mL
COc1ccc2oc(=O)n(-c3ccc(Cl)cc3)c(=O)c2c1 | CNCTC MY330/88 | 125 µM
Clc1ccc(/C(Cn2ccnc2)=N/OC/C=C/c2ccccc2)cc1 | CIP103317 | >16 µg/mL
COc1cc(C(=O)NNC(N)=S)cc(OC)c1OC | ATCC 19421 | >100 µg/mL
CC(=O)NC[C@H]1CN(c2ccc(N3CCN(c4ccc([N+](=O)[O-])s4)CC3)c(F)c2)C(=O)O1 | ATCC49601 | <0.125 µg/mL
COc1ccc(NC(=O)c2cc(Cl)ccc2O)cc1 | CNCTC MY330/88 | 31 µM
CCCCCCCC(OC(=O)c1cnc(Cl)cn1)C(C)(C)C | ATCC49601 | >256 µg/mL
O=C(c1ccc(Cl)cc1)c1ccc(-c2ccc(Br)cc2)cc1 | - | 344 µM
N#Cc1ccc(/C=N/N=C(\N)c2ccccn2)cc1 | - | 256 µg/mL
O=C(c1ccc(Br)cc1)c1ccc(-c2ccc(Br)cc2)cc1 | - | 307 µM
CCCCc1ccc(NC(=S)c2cccc(OC)c2)cc1 | MY330/88 | 32 µM
O=c1oc2ccc(Cl)cc2c(=O)n1-c1ccc(Br)cc1 | CNCTC MY330/88 | 8 µM
COc1ccc(C(=S)NCc2ccccc2)c(O)c1 | MY330/88 | 4 µg/mL
N#Cc1cc(SCc2ccc(Cl)c(Cl)c2)ccn1 | CNCTC MY330/88 | 30.9 µM
CCOc1c(N2CCC(C(C)(C)N)C2)c(F)cc2c(=O)c(C(=O)O)cn(C3CC3)c12 | SMT | 2 µg/mL
N/C(=N/N=C/c1ccc(Cl)cc1)c1ccccn1 | - | 32 µg/mL
CCCCCCOc1ccccc1NC(=O)OCC[N+]1(CCCCCC)CCCCC1 | MY330/88 | 16 µM
Oc1cc(Cl)ccc1C(=S)NCc1ccccc1 | MY330/88 | 8 µg/mL
Fc1ccc(/C(Cn2ccnc2)=N\OCc2ccccc2)cc1 | CIP103317 | 4 µg/mL
CC(C)(C)c1cc(C(C)(C)C)c2nc(C(=O)NC(Cc3ccc(O)cc3)C(=O)O)oc2c1 | MY330/88 | >1000 µM
c1ccc(-c2ccc(CNc3cccc(N4CCSCC4)c3)cc2)cc1 | 103317 | 85.5 µM
Oc1ccccc1C(=S)NCc1ccc(Cl)cc1 | MY330/88 | 0.5 µg/mL
CSc1ccc(NC(=S)Nc2ccc(SC)cc2)cc1 | 724 | >20 µg/mL
CC(C)(C)n1cc(C(=O)O)c(=O)c2cc(F)c(N3CCNCC3)nc21 | SMD | 2 µg/mL
CC(C)(C)c1cc(C(C)(C)C)c2oc(Cc3ccc(O)cc3)nc2c1 | MY330/88 | 250 µM
CCCCc1ccc(NC(=S)c2cccc([N+](=O)[O-])c2)cc1 | MY330/88 | 16 µM
Cc1ccc(CSc2ccnc(C(N)=S)c2)cc1 | CNCTC MY330/88 | 15.85 µM
CS/C(N)=N/NC(=O)c1ccc([N+](=O)[O-])cc1 | ATCC 19421 | >100 µg/mL
Cc1c(F)c(N2CCNC(C)C2)cc2c1c(=O)c(C(=O)O)cn2C1CC1 | MS-6 | 0.5 µg/mL
O=C(Nc1ccc(N2CCSCC2)cc1)c1ccc(-c2ccccc2)cc1 | 103317 | 82.5 µM
CCCCCCCOc1ccccc1NC(=O)OCCN(C)C | MY330/88 | 16 µM
CCCCCCOc1ccccc1NC(=O)OCC[N+]1(CC)CCCCC1 | MY330/88 | 250 µM
CCCOc1cccc(NC(=O)OCC[NH+]2CCCC2)c1 | MY330/88 | 500 µM
O=c1oc2ccc(Cl)cc2c(=O)n1-c1cccc(Cl)c1 | CNCTC MY330/88 | 8 µM
COc1ccc(Cn2c(=O)oc3ccc([N+](=O)[O-])cc3c2=O)cc1 | MY330/88 | 1000 µM
Clc1ccc(/C(Cn2ccnc2)=N\OCc2ccccc2)cc1 | CIP103317 | 0.5 µg/mL
Clc1ccc2c(c1)nc1cc(Nc3ccccc3)c(=NC3CCCCC3)cc-1n2-c1ccccc1 | 6193 | 3.3 µg/mL
N/C(=N/N=C/c1cccc(F)c1)c1ccccn1 | - | 64 µg/mL
O=c1oc2ccccc2c(=O)n1-c1ccccc1 | CNCTC MY330/88 | 125 µM
O/N=C(/Cn1ccnc1)c1ccccc1 | 103317 | 39.7 µM
Oc1cc(Br)ccc1C(=S)NCc1cccc(Br)c1 | MY330/88 | 4 µg/mL
NNC(=O)c1ccncc1 | 3350-4 | 1.25 µg/mL
Cc1cccc(C(N)=Nc2nc(-c3ccccn3)cc3ccccc23)c1 | SK-47 | 2 µg/mL
CC(C)C1Nc2cc(C(C)(C)C)cc(C(C)(C)C)c2O1 | MY330/88 | >1000 µM
NC(=S)c1cc(SCc2ccccc2)ccn1 | CNCTC MY330/88 | 15.85 µM
CCCCCCOc1cccc(NC(=O)OCC[NH+]2CCCC2)c1 | MY330/88 | 32 µM
COc1ccc(C(=O)N/N=C(\N)SCc2cccc(Cl)c2)cc1 | ATCC 19421 | >100 µg/mL
CC(C)COc1ccc(NC(=S)Nc2ccc(OCC(C)C)cc2)cc1 | 724 | 5 µg/mL
CCCCc1ccc(NC(=S)c2cccc(Cl)c2)cc1 | MY330/88 | 62.5 µM
COc1ccc(CSc2ccnc(C(N)=S)c2)cc1 | CNCTC MY330/88 | 15.85 µM
CCCCCCOc1ccccc1NC(=O)OCC[N+]1(CCC)CCCCC1 | MY330/88 | 125 µM
Fc1ccc(/C(Cn2ccnc2)=N/OCc2ccc(-c3ccccc3)cc2)cc1 | CIP103317 | 8 µg/mL
Oc1cc(Br)ccc1C(=S)NCc1ccc(Br)cc1 | MY330/88 | 8 µg/mL
N#Cc1cc(SCc2ccccc2)ccn1 | CNCTC MY330/88 | 126 µM
O=c1oc2cc(Cl)ccc2c(=O)n1-c1ccc(F)cc1 | CNCTC MY330/88 | 16 µM
CCCCCC(C)(CCCCC)OC(=O)c1cnc(Cl)cn1 | 101 | >64 µg/mL

A second listing of 5 rows from above:

SMILES	strain or isolate	value
COc1ccc(NC(=O)c2cc(Cl)ccc2O)cc1	CNCTC MY330/88	31 µM
Fc1ccc(/C(Cn2ccnc2)=N/OCc2ccc(-c3ccccc3)cc2)cc1	CIP103317	8 µg/mL
Cc1cccc(C(N)=Nc2nc(-c3ccccn3)cc3ccccc23)c1	SK-47	2 µg/mL
CCCCCCCCCOc1ccc(NC(=O)OCC[NH+]2CCCC2)cc1	MY330/88	16 µM
CC(C)C1Nc2cc(C(C)(C)C)cc(C(C)(C)C)c2O1	MY330/88	>1000 µM

Blank or dashed fields: not listed here.